The target in the data set is SV40 large T antigen (TAg) (SV40) (UniProt P03070). Briefly: double filter binding. To be noted: no inhibitor control (1% DMSO), 150 nM hexamer, 4 nM ssDNA, 150 nM helicase hexamer, 20 min inhibitor preincubation at 37 C, label: 5'-32P, single-stranded DNA.

Chains of the proteins cited; added tags and fusions are not shown. Lines headed by an entry give the natural chain unless they say otherwise; changes in a name come on top.
UniProt P03070: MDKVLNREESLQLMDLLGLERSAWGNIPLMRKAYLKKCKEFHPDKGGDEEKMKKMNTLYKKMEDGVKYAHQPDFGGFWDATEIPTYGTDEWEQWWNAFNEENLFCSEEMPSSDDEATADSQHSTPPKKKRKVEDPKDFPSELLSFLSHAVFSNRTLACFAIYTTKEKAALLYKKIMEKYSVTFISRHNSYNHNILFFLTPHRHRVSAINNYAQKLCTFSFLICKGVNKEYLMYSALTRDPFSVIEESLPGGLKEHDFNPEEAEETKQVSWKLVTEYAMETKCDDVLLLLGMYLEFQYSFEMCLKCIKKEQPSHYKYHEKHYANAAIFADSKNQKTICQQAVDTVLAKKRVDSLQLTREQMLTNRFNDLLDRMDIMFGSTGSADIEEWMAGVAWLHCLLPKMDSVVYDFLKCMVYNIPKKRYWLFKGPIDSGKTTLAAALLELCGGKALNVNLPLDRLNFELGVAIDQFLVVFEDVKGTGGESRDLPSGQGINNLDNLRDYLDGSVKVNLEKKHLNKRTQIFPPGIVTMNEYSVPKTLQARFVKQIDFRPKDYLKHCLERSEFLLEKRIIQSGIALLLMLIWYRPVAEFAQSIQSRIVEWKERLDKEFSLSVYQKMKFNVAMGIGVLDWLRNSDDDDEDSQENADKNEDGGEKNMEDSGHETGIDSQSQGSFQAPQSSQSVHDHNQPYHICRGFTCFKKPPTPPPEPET

The exact form of at least one protein or probe is not confirmed. At least one verdict was read from the data and is not stated in words by the source.

As for “TGTCTAATCCCGAAAGGCCCTGCCACTGAAATCAACACCTAAAGCATTGA [oligo 826]”, the binding result is reported as “binds”.

The values are drawn from article PMC3791872, “Ciprofloxacin is an inhibitor of the Mcm2-7 replicative helicase” (Bioscience Reports, 2013).
